Values quoted from earlier work in patent US20070259014A1, “Compositions for and Methods for Treating Hiv” (VGX PHARMACEUTICALS, INC., priority 2003, published 2007).
Where two headings read alike, the source gives them in different places.

Key:
[1] = cited from earlier work
[2] = daily oral doses of 1-200 mg (4-30 days), published studies; cited from earlier work

11β-(4dimethylaminophenyl)-17β-hydroxy-17-α-(propyl-lynyl)-4,9-dien-3-one [Mifepristone]
Mifepristone not protein bound in serum ([1]; 40 nM Mifepristone): 2.7% | Mifepristone not protein bound in serum ([1]; 2.5 microM Mifepristone): 2.4% | steady-state drug concentrations in patient serum [2]: 35 to 2300 ng/mL
